For some of these results: For at least one entry, the source does not settle the construct or the ends of the probe.
Tests used:
[1] = biological target: T1, MrkH (tag removed) (Klebsiella pneumoniae) (UniProt G3FT00); experiment: fluorescence polarization; conditions: c-di-GMP (DNA fragment not explicit, 80 bp from context); FP: 10 nM FAM-DNA, 25 C, buffer not fully given. Fig. 2G Kd values (High, 10.3, High, 7.5, 24.3, 10.6, 12.7); recombinant protein; label: 5'-FAM
T1 sequence: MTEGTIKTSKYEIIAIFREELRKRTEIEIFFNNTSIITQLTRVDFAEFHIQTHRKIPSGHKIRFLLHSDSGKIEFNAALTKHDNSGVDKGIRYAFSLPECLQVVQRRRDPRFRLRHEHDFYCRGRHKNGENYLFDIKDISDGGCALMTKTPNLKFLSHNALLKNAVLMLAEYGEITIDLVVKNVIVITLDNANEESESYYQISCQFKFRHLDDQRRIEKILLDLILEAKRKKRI

[2] = biological target: MrkH-PilZ domain (no MBP) (Klebsiella pneumoniae) (UniProt G3FT00); experiment: EMSA; conditions: EMSA: 50 mM Tris pH 8.0, 100 mM NaCl, 5 mM MgCl2, 20 ul, 100 min on ice; recombinant protein; residues 105-234; protein details: MBP absent
[3] = biological target: T2, MBP-MrkH-PilZ domain (Klebsiella pneumoniae) (UniProt G3FT00); experiment: EMSA; conditions: EMSA: 50 mM Tris pH 8.0, 100 mM NaCl, 5 mM MgCl2, 20 ul, 100 min on ice; recombinant protein; residues 105-234; protein details: N-terminal MBP
T2 sequence: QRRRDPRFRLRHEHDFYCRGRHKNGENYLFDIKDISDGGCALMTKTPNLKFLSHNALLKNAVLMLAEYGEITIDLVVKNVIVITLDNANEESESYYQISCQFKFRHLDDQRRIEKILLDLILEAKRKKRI

[4] = biological target: T3, MBP-MrkH (Klebsiella pneumoniae) (UniProt G3FT00); experiment: EMSA; conditions: EMSA: 50 mM Tris pH 8.0, 100 mM NaCl, 5 mM MgCl2, 20 ul, 100 min on ice; recombinant protein; protein details: N-terminal MBP
T3 sequence: T1 sequence

Row | Sequence | Kd [1] | binding result [2] | binding result [3] | binding result [4]
1 | GCTGCGCTGTAAACAACCACCCTCGCGTTTTCATCTATCAATGGCTGTTTATTAATAGTCGATGGTTATCTGTTATATAA (double strand) [PmrkA -117 to -37 (FAM)] | 2630 nM |  |  | 
2 | GCTGCGCTGTAAACAACCACCCTCGCGTTTTCATCTATCAATGGCTGTTTATTAATAGTCGATGGTTATCTGTTATATAACTTAATGAAACGTGAACAAATGTATATTTGTCGGCGAATAAATAGCATTCTTTGACGCCGATAGCACCAGCGAACTTATATTTTTAGGTTCGTTACCTGACGCCTTAAATATTGCGGCTCCCGGTCAGTCGAAGATTCTATTAGCAGTGGCATAAATCAGCATCGCCTGATGTTTCTGGTTCTATGCGAATTCACAGTGTGCT (double strand) [mrkA promoter 288 bp (EMSA, unlabeled)] |  | binds | binds | binds

From paper PMC5055493, “The PilZ domain of MrkH represents a novel DNA binding motif” (Protein & Cell, 2016)
